Data on 14 molecules can be found in patent US20260069689A1, “ANTI-SARS-COV-2-SPIKE GLYCOPROTEIN ANTIBODIES AND ANTIGEN-BINDING FRAGMENTS” (Regeneron, published 2026).

Changes are numbered by the printed parent chain.

B1: mAb14247 (antibody, V domains shown)
VH: QITLKESGPTLVKPTQTLTLTCTFSGFSLSTSAVGVGWIRQPPGKALEWLALIYWDDDKRYSPSLKSRLTITKDTSKNQLVLTMTNVDPVDTATYYCAHHTIQLIFDYWGQGTLVTVSS
VL: QSALTQPASVSGSPGQSITISCTATSSDVGNYNYVSWYQQHPGKAPKLMIYEVSNRPSGVSNRFSGSKSGNTASLTISGLQAEDEADYYCSSYTSSSTPLVFGGGTKLTVLG
B2: mAb14258 (antibody, V domains shown)
VH: QLQLQESGPGLVKPSETLSLICTGSGDSISSSHYYWGWIRQPPGKGLEWIGSTYFSGSTYYNPSLKSRVSISVDTSKNQVSLKLISVTAADTAVYYCAREMGATLGDYWGPGTLVTVSS
VL: QSVLTQPPSASGTPGQRVTISCSGSSSNIGNNYVYWYQQFPGTTPRLLIYRNNERPSGVPDRFSGSKSGTSASLVISGLRSEDEADYYCAAWDDSLSAHYVFGTGTKVTVLG
B3: mAb14313 (antibody, V domains shown)
VH: EVQLVESGGGLVQPGRSLRLSCVASGFTFDDSAMHWVRQPPGKGLEWVSGISWNSGIIGYAESVKGRFIISRDNAKNSLFLHMRGLRPEDTAVYYCARDRLELSYYYYGMDVWGQGTTVTVSS
VL: QSVLTQPPSASGTPGQRVTISCSGSSSNIGSNTVNWYQQFPGTAPRLLIYSNDQRPSGIPDRFSGSKSGTSASLAISGLQSEDEADYYCSTWDDSLNGAVFGGGTQLTVLG
B4: mAb14284 (antibody, V domains shown)
VH: QITLKESGPTLVKPTQTLTLTCTFSGFSFSTSGVGVGWIRQPPGKTLEWLALIYWDDDKRYSPSLKSRLTITKDTSKNQVVLTMTNMDPVDTATYFCAHHGIPTIFGYWGQGALVTVSS
VL: QSALTQPASVSGSPGQSITISCTGTSSDLGVFNYVSWYQQHPGKAPKLMIYEVTNRPSGVSNRFSGSKSGNTASLTISGLQAEDEADYYCSSYTTSSTVFGGGTKLTVLG
B5: mAb14235 (antibody, V domains shown)
VH: QITLKESGPTLVKPTQTLTLTCTFSGFSLNTGGVGVGWIRQPPGNALEWLALIYWDDDKRYNPSLKTRLTISKDTSKNQVVLTMTNMDPVDTATYFCAHLTIAVIVDFWGQGTLVTVSS
VL: B4 VL with G24A, L29V, V31T, F32Y, Y38F, Q40H, S96T, T98I
B6: mAb14283 (antibody, V domains shown)
VH: QVQLQESGPGLVKPSGTLSLTCDVSGGSISSNNWWSWVRQRPGKGLQWIGEIYHNENTNYNPSLKSRVIMSIDKSKNQFSLKLTSVTAADTAVYYCARGDVLDWFDPWGQGTLVTVSS
VL: QSALTQPASVSGSPGQSTTISCTGTSSDVGGYNYVSWYQQYPGKAPKLMIYDVTNRPSGVSHRFSGSKSGNTASLTISGLQAEDEADYYCSSYTSSSTVIFGGGTKLTVLG
B7: mAb13458 (antibody, V domains shown)
VH: EVQLVESGGGLVQPGRSLRLSCAASGFTFDDYAMHWVRQAPGKGLEWVSGISWNSGSIGYADSVKGRFTISRDNAKNSLYLQMNSLRAEDTALYYCAKDIGITTPYWGQGTLVTVSS
VL: AIQMTQSPSSLSASVGDRVTITCRASQDIRNDLGWYQQKPGKAPKLLIYSASSLQTGVPSRFSGSGSGTDFTLTISSLHPEDFATYYCLQDYWYTWTFGQGTKVEIKR
B8: mAb13459 (antibody, V domains shown)
VH: B7 VH
VL: B7 VL with W93N, T95V
B9: mAb14289 (antibody, V domains shown)
VH: QVQLVQSGPEVKKPGASVKVSCKASGYTFTSYAISWVRQAPGQGLEWMGWISAYNGNTNYAQKLQGRVTMTTDTFTSTAYMELRSLRSDDTAVYYCAVPADHITFDYWGQGTLVTVSS
VL: EIVLTQSPGTLSLSPGERATLSCRASQSVSSYLAWYQQKPGQAPRLLIHGASSRATGIPDRFSGSGSGTDFTLTISRLEPEDFAVYYCQQYGSSFLTFGGGTKVEIKR
B10: mAb15150 (antibody, V domains shown)
VH: EVQLVETGGGLIQPGGSLRLSCAAPGFIVSSNYMSWVRQAPGKGLEWVSLLYPGGSTYYADSVKGRFTISRDNSKNTLYLQMNSLRADDTAVYYCARVLPIVEDHFDYWGQGTLVTVSS
VL: DIQLTQSPSFLSASVGDRVTITCRASQGMSSYLAWYQKKPGKAPKLLIYGATILQSGVPSRFSGSGSGTEFTLTISSLQPEDFATYYCQQLNSDPLYMYTFGQGTKLEIKR
B11: mAb14312 (antibody, V domains shown)
VH: EVQLVESGGGLVQPGGSLRLSCAASGFTVSRSYMTWVRQAPGKGLEWVSVIFTGGRTDHADSVKGRFTISRHNSKNTLYLQMNSLRTEDTAVYYCARVAIVGATGAFDIWGQGTMVTVSS
VL: QSVLTQPPSVSGAPGQRVTISCTGSSSNIGAGDDVHWYQQLPGTAPKLLIYGNSNRPSGVPDRFSGSKSGTSASLAITGLQAEDEADYYCQSYDSSLSGSVVFGGGTKLTVLG
B12: mAb14260 (antibody, V domains shown)
VH: EVQLVESGGGLVQPGGSLRLSCAASGFTFSIYEMNWVRQAPGKGLEWVSYITSSGFTIYYADSVKGRFTISRDNAKNSLYLQMHSLRAEDTAVYYCATSSSSGYYFDYWGQGTLVTVSS
VL: not shown
B13: mAb14294 (antibody, V domains shown)
VH: EVQLVESGGGLVQPGGSLRLSCAASGFTFSNHWMDWVRQAPGKGLVWVSRINSDGSSTDYADSVRGRFTMSRDNAKNTLYLQMSSLRAEDTAVYYCAREGMIFGAVIIPGWYFDLWGRGALVTVSS
VL: EIVLTQSPGTLSLSPGERATLSCRASQSVSSSQLAWYQQKPGQAPRLLIYGASSRATGIPDRFSGSGSGTDFTLTISRLEPEDFAVYYCQQYDSFGQGTKLEIKR
B14: mAb14258 (antibody, V domains shown)
VH: B2 VH
VL: B2 VL

One assay deals with T1, SARS-COV-2 RBD extracellular domain expressed with a C-terminal mouse IgG2a Fc (SARS-CoV-2). Briefly: Biacore SPR, mAb captured on anti-hFc, 37 C. A general note: Surface plasmon resonance follows binding to a sensor surface in real time, without labels.
For the molecule B1, the “RBD mFc dimer bound at 50 nM” value stood at 192 RU. For the molecule B2, the “RBD mFc dimer bound at 50 nM” value was 392 RU.

On to B3, for which the “RBD mFc dimer bound at 50 nM” value turned out to be 538 RU. For B4, the “RBD mFc dimer bound at 50 nM” value came to 659 RU. With B5, the “RBD mFc dimer bound at 50 nM” value amounted to 308 RU. Regarding B6, the “RBD mFc dimer bound at 50 nM” value came to 415 RU.

As for B7, the “RBD mFc dimer bound at 50 nM” value worked out at 425 RU. As for B8, the “RBD mFc dimer bound at 50 nM” value was 613 RU. For the molecule B9, the “RBD mFc dimer bound at 50 nM” value turned out to be 372 RU. For the molecule B10, the “RBD mFc dimer bound at 50 nM” value amounted to 339 RU.

As for B11, the “RBD mFc dimer bound at 50 nM” value was 422 RU. The same measure, in the same setting: the value for B12 was 408 RU; that for B13 was 370 RU.

The target of the next assay is T2, SARS-CoV2 Spike ecto foldon Trimer expressed with a C-terminal myc-myc-hexahistidine (SARS-CoV-2, UniProt P0DTC2 14-1213).
T2 construct: extracellular domain
Put plainly: SPR Biacore, mAb captured by anti-hFc, 37C.
Regarding B14, the “Spike trimer.their bound at 50 nM” value is 524 RU.

Another assay addresses T2, SARS-CoV2 Spike ecto foldon Trimer …. Put plainly: SPR Biacore, mAb captured by anti-hFc, 25C.
For the molecule B14, the “Spike trimer.their bound at 50 nM” value turned out to be 406 RU.

The next assay addresses T1, SARS-COV-2 RBD extracellular domain …. Put plainly: Biacore SPR, mAb captured on anti-hFc, 25 C.
Consider B1, for which the “RBD mFc dimer bound at 50 nM” value amounted to 136 RU. Same read-out and setting: the value for B2 was 333 RU; that for B3 was 407 RU. Consider B4, for which the “RBD mFc dimer bound at 50 nM” value is 482 RU. For B5, the “RBD mFc dimer bound at 50 nM” value was found to be 243 RU. Turning to B6, the “RBD mFc dimer bound at 50 nM” value is 320 RU.

B7: the “RBD mFc dimer bound at 50 nM” value stood at 327 RU.

As for B9, the “RBD mFc dimer bound at 50 nM” value turned out to be 295 RU.

Regarding B11, the “RBD mFc dimer bound at 50 nM” value is 349 RU. With B12, the “RBD mFc dimer bound at 50 nM” value worked out at 327 RU. Still for that read-out and setting: the value for B13 was 291 RU.
